In patent US11584744B2 (UNIVERSITY OF WASHINGTON, priority 2017, dated 2023):

What follows are molecules tested on S. aureus (assay: Serum shift assays (MIC with and without 50% human serum)). Conditions: 50% human serum vs no serum.
Assay type: cell-based, Staphylococcus aureus
Experimental: Serum shift assays: To assess the role of protein binding on compound susceptibility, MIC determinations were performed in triplicate in the presence and absence of 50% human serum. Serial threefold dilutions of 2× compound were generated in MHB and aliquoted onto 96 well plates with a DMSO limit of 0.5%. Bacteria were adjusted to 1*10^8 CFUs/mL in MHB, then further diluted 1:100 in MHB and 100% heat deactivated filter sterilized pooled human serum. Fifty microliters were added to each well of the corresponding plates, and the plates were incubated at 37° C. for ˜20 h. The lowest concentration causing ≥90% growth inhibition was recorded as the MIC.

Point of comparison: `CCCn1c(Cc2ccc(Cl)cc2Cl)cn(Cc2nc3ccc(F)nc3[nH]2)c1=O` [Compound 2069, 4-[(2,4-dichlorophenyl)methyl]-1-({5-fluoro-1H-imidazo[4,5-b]pyridin-2-yl}methyl)-3-propyl-2,3-dihydro-1H-imidazol-2-one], “Avg Fold-shift of MIC” value 506.9. Against it:
- Fc1ccc2nc(NCCCNCc3cc(Cl)cc(Cl)c3)[nH]c2n1 [Compound 1614, [(3,5-dichlorophenyl)methyl][3-({5-fluoro-3H-imidazo[4,5-b]pyridin-2-yl}amino)propyl]amine] — lower, 17.3
- Fc1ccc2nc(NCCCN[C@@H]3CCNc4c(Cl)cc(Cl)cc43)[nH]c2n1 [Compound 1717, (4R)-6,8-dichloro—N-[3-({5-fluoro-3H-imidazo[4,5-b]pyridin-2-yl}amino)propyl]-1,2,3,4-tetrahydroquinolin-4-amine, reference compound] — lower, 23.5
- CCn1c(Cc2ccc(Cl)cc2Cl)cn(Cc2nc3nc(F)ccc3[nH]2)c1=O [Compound 2062, 4-[(2,4-dichlorophenyl)methyl]-3-ethyl-1-({5-fluoro-1H-imidazo[4,5-b]pyridin-2-yl}methyl)-2,3-dihydro-1H-imidazol-2-one] — lower, 208.1
- CCn1c(Cc2ccc(OC)cc2Cl)cn(Cc2nc3ccc(Cl)nc3[nH]2)c1=O [Compound 2093, 1-({5-chloro-1H-imidazo[4,5-b]pyridin-2-yl}methyl)-4-[(2-chloro-4-methoxyphenyl)methyl]-3-ethyl-2,3-dihydro-1H-imidazol-2-one] — lower, 267.9
- COc1cc(Cl)c(-c2cccc3nc(Cc4nc5nc(Cl)ccc5[nH]4)cn23)cc1OC [Compound 2144, 2-({5-chloro-1H-imidazo[4,5-b]pyridin-2-yl}methyl)-5-(2-chloro-4,5-dimethoxyphenyl)imidazo[1,2-a]pyridine] — lower, 56.5
